Measured values from several laboratories, pooled; numbers as filed in NIAID ChemDB.

Conditions beyond the fields shown may differ between rows. CCn: concentration that lowers growth or viability of the cells by n%. Blank or dashed fields: not listed here. Inhibition is in % at the dose shown (toxicity tests: loss of growth or viability). MIC bound: limit read from a one-dose screen. ECn is the concentration giving n% inhibition of infection, replication or growth. ICn is the concentration giving n% inhibition.

SMILES	test	species	strain	cell line	target	read by	setting	measure	tested at	result
CC1COP(N(C(C)C)C(C)C)O1	culture	Mycobacterium tuberculosis	H37Rv	-	-	resazurin	-	MIC bound	-	>6.25 µg/mL
O=[N+]([O-])c1ccc(-n2cnc([N+](=O)[O-])n2)c([N+](=O)[O-])c1	toxicity	-	-	VERO	-	-	-	CC50	-	0.39 µg/mL
NC(=NCCC[C@H](N)C(=O)O)NP(=O)(O)O	culture	Herpes simplex virus 1	KOS	HeLa	-	cytopathic effect	-	EC50	-	>200 µg/mL
CN1C(=O)N(C)P12(Cl)N(C)C(=O)N2C	culture	Mycobacterium tuberculosis	H37Rv	-	-	BACTEC	-	inhibition	12.5 µg/mL	9%
O=[N+]([O-])c1cc(Cn2nnc(-c3cc([N+](=O)[O-])cc([N+](=O)[O-])c3)n2)cc([N+](=O)[O-])c1	culture	Mycobacterium kansasii	6509/96	-	-	-	7 d	MIC	-	2 µM
O=[N+]([O-])c1cc(S(=O)(=O)c2cc([N+](=O)[O-])c(Cl)c([N+](=O)[O-])c2)ccc1Cl	target	HIV-1	-	-	Integrase	strand transfer	-	IC50	-	65.6 µM
Cc1cn([C@H]2C[C@H](F)[C@@H](CO)O2)c(=O)[nH]c1=O	culture	HIV-1	-	H9	-	p24	-	inhibition	0.05 µM	54.73%
[N-]=[N+]=Nc1ccc([N+](=O)[O-])cc1	culture	Mycobacterium tuberculosis	H37Rv	-	-	-	-	MIC	-	>100 µg/mL
Cc1cn(C2CC(OP(=O)(O)OCC3OC(n4cnc5c(=O)[nH]c(N)nc54)CC3OP(C)(=O)OCC3OC(n4cnc5c(=O)[nH]c(N)nc54)CC3OP(C)(=O)OCC3OC(n4cnc5c(=O)[nH]c(N)nc54)CC3OP(C)(=O)OCC3OC(n4cnc5c(N)ncnc54)CC3OP(C)(=O)OCC3OC(n4cnc5c(=O)[nH]c(N)nc54)CC3O)C(COCc3ccc(OCc4ccccc4)c(OCc4ccccc4)c3)O2)c(=O)[nH]c1=O	toxicity	-	-	MT-4	-	-	-	CC50	-	>50 µg/mL
Cc1cn([C@H]2C[C@H](N=[N+]=[N-])[C@@H](COP(=O)(F)OCCSC(=O)C(C)(C)C)O2)c(=O)[nH]c1=O	toxicity	-	-	MT-4	-	-	-	CC50	-	>100 µM
Nc1cc([As]=O)ccc1O	culture	HIV-1	IIIB	PBL	-	p24	-	EC50	-	<0.15 µg/mL
Cc1cn([C@H]2C[C@H](F)[C@@H](COP(=O)(O)C#N)O2)c(=O)[nH]c1=O	culture	HIV-1	SCV 4005	MT-4	-	RT activity	-	EC50	-	0.13 µM
CNP1(NC)=NP(Cl)(Cl)=NP(N)(N)=N1	culture	Mycobacterium tuberculosis	H37Rv	-	-	BACTEC	-	MIC	-	≥128 µg/mL
[N-]=[N+]=NC(N)=O	culture	Mycobacterium tuberculosis	H37Rv	-	-	-	-	MIC	-	50 µg/mL
Cc1cn([C@H]2C=C[C@@H](CO)O2)c(=O)[nH]c1=O	toxicity	-	-	PBMC	-	XTT	-	CC50	-	349 µM
ClP1(Cl)=NP(Cl)(Cl)=NP(Cl)(Cl)=N1	culture	Mycobacterium tuberculosis	H37Rv	-	-	BACTEC	-	MIC bound	-	>128 µg/mL
Cc1cn([C@H]2C[C@H](F)[C@@H](COP(=O)(O)CF)O2)c(=O)[nH]c1=O	toxicity	-	-	H9	-	trypan blue	-	CC50	-	>100 µM
NC1=NCCN1[N+](=O)[O-]	culture	Mycobacterium tuberculosis	H37Rv	-	-	resazurin	-	MIC bound	-	>6.25 µg/mL
Cc1cn([C@H]2CC[C@@H](COP(=O)(O)F)O2)c(=O)[nH]c1=O	culture	HIV-1	-	PBMC	-	p24	-	EC50	-	100 µM
Cc1ccc(NC(=O)NP(=O)(Nc2ccccc2)Nc2ccccc2)cc1Cl	culture	Mycobacterium tuberculosis	H37Rv	-	-	BACTEC	-	inhibition	12.5 µg/mL	15%
Nc1cc([As]=O)ccc1O	culture	HIV-1	G910-6	MT-2	-	MTT / p24	-	EC50	-	0.33 µg/mL
O=C1OCCN1[N+](=O)[O-]	culture	Mycobacterium tuberculosis	H37Rv	-	-	BACTEC	-	inhibition	12.5 µg/mL	99%
O=C(c1ccc([N+](=O)[O-])cc1[N+](=O)[O-])c1ccc([N+](=O)[O-])cc1[N+](=O)[O-]	culture	Mycobacterium tuberculosis	H37Rv	-	-	-	-	MIC	-	>100 µg/mL
CC1=NO[C@@]2(CC[C@H](C)N3C[C@H]2n2cc(C(=O)NCc4ccc(F)cc4F)c(=O)c(OC(=O)N(C)Cc4ccc(OP(=O)(O)O)cc4)c2C3=O)C1	culture	HIV-1	IIIB	MT-4	-	luminescence	-	EC50	-	0.1 µM
O=[N+]([O-])N1CCCS1(=O)=O	culture	Mycobacterium tuberculosis	H37Rv	-	-	BACTEC	-	MIC bound	-	>12.5 µg/mL